Source: article PMC7846482 (The Journal of Biological Chemistry, 2021)
Like-named read-outs stand apart in the source and are kept apart here.

B1: mouse anti-SARS-CoV-2 spike monoclonal antibody clone S3D8 (antibody, V domains shown)
VH: QVQLQQSGAELVKPGASVKLSCKASGYTFTSYYMYWMKQRPGQGLEWIGEINPSNGGTNFNEKFKSKATLTVDKSSSTAYMQLSSLTSEDSAVYYCTIFITRDAMDYWGQGTSVTVSS
VL: QIVLTQSPAIMSASPGEKVTLTCSASSSVSSSYLFWYQQKPGSSPKLWIYTTSNLASGVPARFSGSGSGTSYSLTISSMEAEDAASYFCHQWSSYPPTFGAGTKLELK
B2: mouse anti-SARS-CoV-2 spike monoclonal antibody clone S1D7 (antibody, V domains shown)
VH: QVQLQQSGAELVKPGASVKLSCKASGYTFTSYYIYWMKQRPGQGLEWIGEINPNNGGTNFNEKFKSKATLTVDKSSSTAYMQLSSLTSEDSAVYYCTRGHSDYWGQGTTLTVSS
VL: DIVLTQSPASLAVSLGQRATISCRASESVEYYGTGLMQWYQQKPGQPPKLLIYAASNVESGVPARFSGSGSGTDFSLNIHPVEEDDIAMYFCQQTRKVPYTFGGGTKLEIK
B3: mouse anti-SARS-CoV-2 spike monoclonal antibody clone R52 (antibody, V domains shown)
VH: QIQLVQSGPELKKPGETVKISCKASGYTFTNYGMNWVKQAPGNGLRWMGWINTYTREPSYAADFKGRFAFSLETSARAAYLQINNLKNEDTATYFCARNGAMDYWGQGTSVTVSS
VL: DVVMTQTPLTLSVTFGQPASISCKSSQSLLDSDGKTYLIWLLQRPGQSPKRLISLVSKLDSGVPDRFTGSGSGTDFTLKISRVEAEDLGVYYCWQGTHFPGTFGGGTKLEIK
B4: recombinant human/mouse chimeric antibody R52h (antibody, V domains shown)
VH: B3 VH
VL: B3 VL
B5: mouse anti-SARS-CoV-2 spike monoclonal antibody clone R22 (antibody, V domains shown)
VH: EVQLQQSGPELVRPGASVKISCKTSGYTFTEYIIHWVKQSHGKSLEWIGGIDPNNGDTSYNQKFKGKASLTVDKSSSTAYMELRSLTSDDSAVYYCARLDFDYWGQGTTLTVSS
VL: DIVMTQSHKFMSTSVGDRVSITCKASQDVRTAVAWYQQKPGQSPKLLIYWASTRYTGVPDRFTGSGSGTDYTLTISSVQAEDLALYYCQQHDSTPLTFGAGTKLELK

Legend:
[1] = molecular target: T1, spike glycoprotein expressed in VeroE6/TM2 cells during SARS-CoV-2 infection (SARS-CoV-2, isolate not named in the …, UniProt P0DTC2); experiment: immunostaining of cells or tissue; […]; settings: one partner purified
T1 construct: also called spike glycoprotein of live SARS-CoV-2

[2] = molecular target: wild-type (native) SARS-CoV-2 spike glycoprotein expressed in 293T cells (Severe acute respiratory syndrome …, UniProt P0DTC2); experiment: western blotting
[3] = molecular target: T1, spike glycoprotein expressed in …; experiment: western blotting; settings: one partner purified

Binder | binding result [1] | binding result [3] | other results
B1 | binds | – | –
B2 | binds | – | –
B3 | – | binds | binding result ([2]; one partner purified): binds
B4 | – | – | binding result [2]: binds
B5 | – | binds | –
